In PubChem BioAssay AID1956 (SRMLSC, 2009):
Activity calls are given as the source filed them. No stated cut-off is given here; in the data, active means maximum fold increase above about 1.5; inconclusive means no clear call, values can overlap the other calls; inactive means below that; tested in PC3 cells.

Tested on: HSV replication augmentation in cells, fold increase
Assay: enhancers of HSV replication in host cells, fold increase, host cell viability (AID 1956)

SMILES: O=C(NCC1(N2CCCCC2)CCCCC1)c1cccc([N+](=O)[O-])c1
- EC50: inactive: > 25 µM
